Source: PubChem BioAssay AID504761 (Drosophila RNAi Screening Center, 2011)
In all, the deposit lists about 22,000 reagents; shown is an unselected part of those with a known target gene and a result. In the full data, 116 (0.52%) got an active call. 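Calls depend on retest data that are not deposited; infection was ranked per plate without normalising between plates; the unit of the infection score is not given.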 Reagents against one gene are numbered here. Not all columns of the deposit are shown. The record does not give: the amount of reagent, the time to read-out.

- Screen: 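Insect host genes that dengue virus relies on to spread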 (primary screen)
- Cell system: D.Mel-2 cells from Drosophila
- Reagents: long dsRNA against Drosophila genes
- Challenge: infection with dengue virus type 2; dose and infection time not stated
- Measured: 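Per well on two replicate plates, imaging gave the percent of cells positive for viral envelope protein, ranked by infection, and a nuclear count of cells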
- Reading the numbers: infection score: higher = more virus-infected cells
- Call rule: 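Very low infection ranking in both replicate wells (chance probability at most 0.065), then a retest showing infection dropped 1.5-fold or more at p below 0.05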
- Calls: active = confirmed: knock-down lowers infection; inactive = not picked or not confirmed

no.	predicted target	dsRNA no.	infection score, replicate 1	activity call
1	Acn	1	18.6	inactive
2	Acn	2	10.5	inactive
3	Prp3	1	11.9	inactive
4	TfAP-2	1	6.01	inactive
5	bys	1	22.7	inactive
6	bys	2	20.4	inactive
7	CG3222	1	3.47	inactive
8	Tnpo-SR	1	2.8	inactive
9	Tim17a2	1	2.74	inactive
10	Tim17a2	2	0.82	inactive
11	CG31269	1	7.99	inactive
12	CG31269	2	26.2	inactive
13	Cyp6g1	1	4.96	inactive
14	CG7653	1	3.93	inactive
15	norpA	1	3.57	inactive
16	CG17528	1	3.94	inactive
17	fs(1)h	1	5.6	inactive
18	fs(1)h	2	21.2	inactive
19	Ugt303B2	1	2.75	inactive
20	Ugt303B2	2	1.3	inactive
21	CG3335	1	4.82	inactive
22	CG3335	2	37.3	inactive
23	CG10903	1	6.5	inactive

Laid out differently: 2 of the entries above
| predicted target | dsRNA no. | infection score, replicate 1 | activity call |
| --- | --- | --- | --- |
| CG7653 | 1 | 3.93 | inactive |
| norpA | 1 | 3.57 | inactive |
